Data reported in paper PMC10569748.

Key:
Assay in all cases: purified protein
Conditions in all cases: pH 7.5, 25 °C, 2% DMSO, 5 mM DTT, 1 mM CHAPS, 1 mM EDTA
[1] = test system: Cc1cc(=O)oc2cc(NC(=O)[C@H](C)NC(=O)[C@H](CCCNC(=N)N)NC(=O)OCc3ccccc3)ccc12
[2] = test system: Cc1cc(=O)oc2cc(NC(=O)[C@H](CCCNC(=N)N)NC(=O)[C@H](CCCNC(=N)N)NC(=O)OCc3ccccc3)ccc12
[3] = test system: Cc1cc(=O)oc2cc(NC(=O)[C@H](CCCNC(=N)N)NC(=O)[C@H](Cc3ccccc3)NC(=O)OCc3ccccc3)ccc12

Question: How did the Km [1] turn out when cruzain (Trypanosoma cruzi; E208A) was run?
Answer: 163 ± 3 µM

Question: What about the kcat [1] of the same substance?
Answer: 0.017 s⁻¹

Question: And the kcat/Km [1]?
Answer: 100 M⁻¹ s⁻¹

Question: What about the Km [2] of the same substance?
Answer: 45 ± 4 µM

Question: And the kcat [2]?
Answer: 0.27 s⁻¹

Question: What about the kcat/Km [2] of the same substance?
Answer: 6000 M⁻¹ s⁻¹

Question: What about the Km [3] of the same substance?
Answer: 1.6 ± 0.1 µM

Question: What about the kcat [3] of the same substance?
Answer: 21 s⁻¹

Question: And the kcat/Km [3]?
Answer: 1.3e+07 M⁻¹ s⁻¹
